A mixed list of measured activities; the numbers were collected in NIAID ChemDB.

All rows: host cell toxicity; cell line: VERO; read-out: CC50

CCn: concentration that lowers growth or viability of the cells by n%. Blank or dashed fields: not listed here. Lines come from different laboratories, so protocols vary.

| compound | read by | value |
|---|---|---|
| CCCOC(=O)C(CCSC[C@H]1O[C@@H](n2ccc3c(N)ncnc32)[C@H](O)[C@@H]1O)NC(=O)COC | - | 70 µg/mL |
| CC(C)OC(=O)CCc1ccccc1O[P@@](=O)(N[C@@H](C)C(=O)OC(C)C)OC[C@H]1O[C@@H](n2cnc3c(N)nc(N)nc32)[C@](C)(O)[C@@H]1O | - | >100 µM |
| CCN(CC)CCCNc1cc(OC)cc2nc3cc(Cl)ccc3nc12.Cl.Cl | - | 1.1 µg/mL |
| CCn1cc(C(N)=O)c(=O)c2ccccc21 | - | >50 µg/mL |
| S=C(S)N1CCCCC1 | - | 8.3 µg/mL |
| NC(=O)c1cn(Cc2ccc(Cl)c(Cl)c2)c2cc(-c3ccncc3)ccc2c1=O | - | >100 µg/mL |
| CCCNCC(=O)Nc1ccc(C)c(Cl)c1 | - | 57.91 µg/mL |
| COC(=O)[C@@H]1[C@H](c2cc(OC)c3nc4ccccc4nc3c2)c2cc3c(cc2C2=NOC[C@@H]21)OCO3 | - | 120 µg/mL |
| C[N+](C)(C)CC(=O)N/N=C/c1ccc([N+](=O)[O-])o1 | - | 63.95 µg/mL |
| COc1cc(OC)c(N2C(=O)C=C(c3ccccc3)C2=O)c(OC)c1 | - | 20 µg/mL |
| CC(=O)c1c(C)cc2cccc(O)c2c1O | MTT | 119.6 µg/mL |
| Cc1cccc(/C=N/Nc2ccccn2)n1 | - | 0.72 µg/mL |
| O=c1[nH]c(=O)n([C@H]2C[C@H](O)[C@@H](CO)O2)cc1/C=C/Br | - | >400 µg/mL |
| Nc1ncnc2c([C@H]3CC[C@@H](CCl)O3)[nH]nc12 | - | 400 µg/mL |
| O=c1[nH]c(=O)n([C@H]2C[C@H](F)[C@@H](CO)O2)cc1/C(Cl)=C/I | - | 18.5 µM |
| CCN1C=C2C(=O)CN=C2c2ccc(-c3ccncc3)cc21 | - | >100 µg/mL |
| CCCOC(=O)C(N)CCSC[C@H]1O[C@@H](n2ccc3c(N)ncnc32)[C@H](O)[C@@H]1O | - | 200 µg/mL |
| CN(C)C(=S)SSC(=S)N(C)C | - | 0.2 µg/mL |
| [N-]=[N+]=N[C@H]1C[C@H](n2cc(/C(I)=C\I)c(=O)[nH]c2=O)O[C@@H]1CO | - | 52.3 µM |
| CCOC(=O)C(CCSC[C@H]1O[C@@H](n2ccc3c(N)ncnc32)[C@H](O)[C@@H]1O)NC(=O)C(F)(F)F | - | 40 µg/mL |
| O=C(NC[C@@H]1OC(=O)N2c3cc(F)c(C4=CCN(CCO)CC4)cc3OC[C@@H]12)C1CC1 | resazurin | >64 µg/mL |
| COc1cc(-c2oc3c(OC)c(OC)cc(O)c3c(=O)c2OC)ccc1O | - | 200 µM |
| CCCOC(=O)C(CCSC[C@H]1O[C@@H](n2ccc3c(N)ncnc32)[C@H](O)[C@@H]1O)NC(=O)C(F)(F)F | - | >200 µg/mL |
| CC(=O)NC1N=C(c2ccccc2)c2cc(Cl)ccc2NC1=O | - | 5 µM |
| CO/N=C1/C(=O)N(CCOCCOCCOCCn2c(O)c(N=O)c3ccccc32)c2ccc(C)cc21 | MTT | 250 µg/mL |
| COC(=O)[C@H]1[C@@H]2CON=C2c2cc3c(cc2[C@H]1C1=CC(=O)C(=O)C(OC)=C1)OCO3 | - | >120 µg/mL |
| O=C(NC(=O)C1N=C(c2ccccc2)c2ccccc2NC1=O)c1ccco1 | - | 1 µM |
| O=C(Cc1nn(Cc2ccc(Br)cc2F)c(=O)c2ccccc12)N/N=C/c1ccc([N+](=O)[O-])cc1 | MTT | >122.5 µM |
| Cc1cn([C@H]2C[C@H](N=[N+]=[N-])[C@@H](CO)O2)c(=O)[nH]c1=O | - | 29 µM |
| NC(=O)c1nnn([C@@H]2C[C@H](CCP(=O)(O)O)C[C@H]2O)c1N | - | >100 µM |
| CCN(CC)CC(O)CNc1ccc(C)c2sc3ccccc3c(=O)c12 | - | 7 µg/mL |
| CC(=O)NC[C@@H]1OC(=O)N2c3cc(F)c(C4=CCN(C(=O)CN)CC4)cc3OC[C@@H]12 | resazurin | >64 µg/mL |
| CC[N+](C)(CC)CCNc1cc2c(c3c(=O)c4ccccc4sc13)CCCC2 | - | 46.02 µg/mL |
| C[C@@H]1CC[C@H]2[C@@H](C)C(=O)O[C@@H]3OC4(C)CC[C@@H]1[C@]32OO4 | MTT | >9 µM |
| CS(=O)(=O)NC1N=C(c2ccccc2)c2ccccc2NC1=O | - | 6 µM |
| Nc1ncnc2c1ccn2[C@@H]1O[C@H](CO)[C@H](O)[C@H]1O | - | 40 µg/mL |
| COc1cc(O)c(CC=C(C)C)c2c1C(=O)CC(c1ccc(O)cc1)O2 | - | 62 µg/mL |
| Nc1nc(Cl)c2ncn(C[C@H]3CC[C@@H](CO)C3)c2n1 | - | ≥40 µg/mL |
| Cc1cc2c(ccc3nc(N)nc(N)c32)[nH]1 | - | 20 µg/mL |
| COc1cc(/C=C2\CC/C(=C\c3ccc(OCCn4ccnc4C)c(OC)c3)C2=O)ccc1OCCn1ccnc1C | MTT | >9 µM |
| NC(=O)CCCCC1CCSS1 | - | 59 µg/mL |
| Nc1nc(Cl)c2nnn(C[C@H]3CC[C@@H](CO)C3)c2n1 | - | ≥400 µg/mL |
| Nc1nc(-c2ccc(Br)cc2)cs1 | - | 30 µg/mL |
| O=C1C2=Nc3ccccc3C(c3c[nH]c4ccccc34)N2c2ccccc21 | MTS | >50 µg/mL |
| COc1cc([C@@H]2c3cc4c(cc3[C@H](OC(C)=O)[C@@H]3COC(=O)[C@@H]23)OCO4)cc(OC)c1OC | - | >20 µg/mL |
| NC(=O)c1cn([C@@H]2C[C@H](CO)C[C@H]2O)nn1 | - | >100 µM |
| CCOC(=O)C(CCSC[C@H]1O[C@@H](n2ccc3c(N)ncnc32)[C@H](O)[C@@H]1O)NC(C)=O | - | 100 µg/mL |
| COc1cc(/C=C2\CC/C(=C\c3ccc(OCCn4ccnc4)c(OC)c3)C2=O)ccc1OCCn1ccnc1 | MTT | >9 µM |
| NC1=Nc2c(ncn2CCCCCP(=O)(O)O)C(=O)C1 | - | >250 µM |
| CO[C@H]1/C=C/O[C@@]2(C)Oc3c(C)c(O)c4c(O)c(c(/C=N/N5CCN(C)CC5)c(O)c4c3C2=O)NC(=O)/C(C)=C\C=C\[C@H](C)[C@H](O)[C@@H](C)[C@@H](O)[C@@H](C)[C@H](OC(C)=O)[C@@H]1C | MTT | 500 µg/mL |
| CO[C@H]1/C=C/O[C@@]2(C)Oc3c(C)c(O)c4c(O)c(c(/C=N/N5CCN(C)CC5)c(O)c4c3C2=O)NC(=O)/C(C)=C\C=C\[C@H](C)[C@H](O)[C@@H](C)[C@@H](O)[C@@H](C)[C@H](OC(C)=O)[C@@H]1C | MTT | >500 µg/mL |
| CCO/N=C1/C(=O)N(CCOCCOCCOCCN2C(=O)C(=O)c3cc(F)ccc32)c2ccc(F)cc21 | MTT | 125 µg/mL |
| COc1ccc(C[C@H](N)C(=O)N[C@H]2[C@@H](O)[C@H](n3cnc4c(N(C)C)ncnc43)O[C@@H]2CO)cc1 | - | 1.3 µg/mL |
| CC1(C)CC(=O)C2=C(C1)N(NC(=O)c1ccncc1)C1=C(C(=O)CC(C)(C)C1)C2c1cccc([N+](=O)[O-])c1 | MTT | 121 µM |
| O=C(NC[C@@H]1OC(=O)N2c3cc(F)c(C4=CCN(CCO)CC4)cc3OC[C@@H]12)C1CCC1 | resazurin | >64 µg/mL |
| CCOC(=O)[C@H](C)NP(=O)(OC[C@H]1O[C@@H](n2cnc3c(N)nc(N)nc32)[C@](C)(O)[C@@H]1O)Oc1ccccc1CCC(=O)OC(C)C | - | >100 µM |
| COc1cc([C@@H]2c3cc4c(cc3[C@H](OC(C)=O)[C@@H]3COC(=O)[C@@H]23)OCO4)cc(O)c1O | - | >25 µg/mL |
| Cc1cn([C@H]2C[C@H](N=[N+]=[N-])[C@@H](CO)O2)c(=O)[nH]c1=O | - | 29 µM |
| O=C1CCCN2C(CC1)C[C@]13CN4CCCC/C=C\CC[C@](O)(C=C(c5nccc6c5[nH]c5ccccc56)[C@@H]1CC4)C23 | - | >4.76 µg/mL |
| NC1=Nc2c(ncn2CCCCC(F)(F)P(=O)(O)O)C(=O)C1 | - | ≥250 µM |
| Nc1ncnc2c1ncn2[C@@H]1O[C@H](CO)C[C@H]1O | - | 200 µg/mL |
| O=C(Cc1nn(Cc2ccc(Br)cc2F)c(=O)c2ccccc12)NN=C(c1ccccc1)c1ccccc1 | MTT | 115.4 µM |
| O=C(CO)N1CC=C(c2cc3c(cc2F)N2C(=O)O[C@@H](CNC(=O)C(F)(F)F)[C@@H]2CO3)CC1 | resazurin | >64 µg/mL |
| CCCCN(CCCC)CCNc1ccc(C)c2sc3cc(Cl)ccc3c(=O)c12 | - | >2.5 µg/mL |
| COc1cc([C@@H]2c3cc4c(cc3[C@H](OC(C)=O)[C@@H]3COC(=O)[C@@H]23)OCO4)cc2nc3ccccc3nc12 | - | >20 µg/mL |
| CSC(=S)N/N=C(/C)c1ccco1 | - | 0.95 µg/mL |
| CCC(NC(=O)C1CCC1C(=O)[C@@H](NC(=O)[C@@H](NC(=O)c1cnccn1)C1CCCCC1)C(C)(C)C)C(=O)C(=O)NC1CC1 | - | >100 µM |
| COc1cc(/C=C2\CC/C(=C\c3ccc(OCCCn4ccnc4)c(OC)c3)C2=O)ccc1OCCCn1ccnc1 | MTT | >9 µM |
| Cc1cc2c(C)c3cc(C)c(N)cc3nc2cc1N | - | 0.51 µg/mL |
| Cc1cn([C@H]2C[C@H](N=[N+]=[N-])[C@@H](CO)O2)c(=O)[nH]c1=O | - | 29 µM |
| COc1ccc2nc(N/N=C/c3ccccn3)cc(C)c2c1 | - | 0.54 µg/mL |
| O=C(Cc1nn(Cc2ccc(Br)cc2F)c(=O)c2ccccc12)N/N=C(\c1ccccc1)c1ccc(Br)cc1 | MTT | 100.8 µM |
| CO[C@@]12[C@H](COC(N)=O)C3=C(C(=O)C(C)=C(N4CCCC4)C3=O)N1C[C@@H]1N[C@@H]12 | - | 1.1 µg/mL |
| CC(C)OC(=O)CCc1ccccc1OP(=O)(N[C@@H](C)C(=O)OC(C)C)OC[C@H]1O[C@@H](n2cnc3c(N)nc(N)nc32)[C@](C)(O)[C@@H]1O | - | >100 µM |
| COC(=O)c1cn([C@@H]2C[C@H](CO)C[C@H]2O)nn1 | - | >100 µM |
| O=C(Cc1nn(Cc2ccc(Br)cc2F)c(=O)c2ccccc12)N/N=C/c1ccccc1[N+](=O)[O-] | MTT | >122.5 µM |
| Nc1nc(N)c2ncn(C[C@H]3CC[C@@H](CO)C3)c2n1 | - | ≥400 µg/mL |
| CCOC(=O)[C@H](C)N[P@@](=O)(OC[C@H]1O[C@@H](n2cnc3c(N)nc(N)nc32)[C@](C)(O)[C@@H]1O)Oc1ccccc1CCC(=O)OC(C)C | - | >100 µM |
| CCn1cc(C(=O)NNC)c(=O)c2ccc(-c3ccncc3)cc21 | - | >25 µg/mL |
| Cc1ccc(Nc2nc3c(s2)C(=O)c2ccccc2C3=O)c(C)c1 | - | 5 µg/mL |
| O=C(Cc1nn(Cc2ccc(Br)cc2F)c(=O)c2ccccc12)N/N=C/c1c(Cl)cccc1Cl | MTT | >117 µM |
| CCO/N=C1/C(=O)N(CCOCCOCCOCCn2c(O)c(N=O)c3ccccc32)c2ccc(C)cc21 | MTT | 500 µg/mL |
| COC(=O)C(N)CCSC[C@H]1O[C@@H](n2ccc3c(N)ncnc32)[C@H](O)[C@@H]1O | - | 200 µg/mL |
| COc1cc([C@@H]2c3cc4c(cc3[C@H](OC(C)=O)[C@@H]3COC(=O)[C@@H]23)OCO4)cc2nccnc12 | - | >25 µg/mL |
| CCO/N=C1\C(=O)N(CCOCCOCCOCCN2C(=O)/C(=N/OC)c3cc(F)ccc32)c2ccc(F)cc21 | MTT | 62.5 µg/mL |
| Cc1ccc(NC(=O)CCl)cc1Cl | - | 0.4 µg/mL |
| O=C1C(c2c(O)[nH]c3ccccc23)=Nc2ccccc21 | MTS | >32 µg/mL |
| Nc1nccc2c1ncn2[C@@H]1C[C@H](CO)[C@@H](O)[C@H]1O | - | ≥200 µg/mL |
| CN(C)/N=N/c1[nH]cnc1C(N)=O.[Cl][Cu][Cl] | - | 154.6 µg/mL |
| COC(=O)NC[C@@H]1OC(=O)N2c3cc(F)c(C4=CCN(C(=O)CO)CC4)cc3OC[C@@H]12 | resazurin | >64 µg/mL |
| O=C1c2ccccc2C(=O)c2sc(Nc3ccccc3C(F)(F)F)nc21 | - | 8 µg/mL |
| NC(=O)c1c[nH]c2cc(-c3ccncc3)ccc2c1=O | - | >12.5 µg/mL |
| COC1=CC([C@@H]2c3cc4c(cc3[C@H](OC(C)=O)[C@@H]3COC(=O)[C@H]32)OCO4)=CC(=O)C1=O | - | >23 µg/mL |

8 of the rows above, restated:

compound	read by	value
O=C1C(c2c(O)[nH]c3ccccc23)=Nc2ccccc21	MTS	>32 µg/mL
CCn1cc(C(=O)NNC)c(=O)c2ccc(-c3ccncc3)cc21	-	>25 µg/mL
Nc1nc(Cl)c2ncn(C[C@H]3CC[C@@H](CO)C3)c2n1	-	≥40 µg/mL
COc1cc([C@@H]2c3cc4c(cc3[C@H](OC(C)=O)[C@@H]3COC(=O)[C@@H]23)OCO4)cc(O)c1O	-	>25 µg/mL
CO[C@H]1/C=C/O[C@@]2(C)Oc3c(C)c(O)c4c(O)c(c(/C=N/N5CCN(C)CC5)c(O)c4c3C2=O)NC(=O)/C(C)=C\C=C\[C@H](C)[C@H](O)[C@@H](C)[C@@H](O)[C@@H](C)[C@H](OC(C)=O)[C@@H]1C	MTT	500 µg/mL
CCOC(=O)[C@H](C)N[P@@](=O)(OC[C@H]1O[C@@H](n2cnc3c(N)nc(N)nc32)[C@](C)(O)[C@@H]1O)Oc1ccccc1CCC(=O)OC(C)C	-	>100 µM
O=C(Cc1nn(Cc2ccc(Br)cc2F)c(=O)c2ccccc12)N/N=C/c1ccc([N+](=O)[O-])cc1	MTT	>122.5 µM
COC(=O)C(N)CCSC[C@H]1O[C@@H](n2ccc3c(N)ncnc32)[C@H](O)[C@@H]1O	-	200 µg/mL